Anti-infective test results gathered from many reports (values: NIAID ChemDB through PubChem).

All rows: host cell toxicity; cell line: MT-4; measure: CC50

Lines come from different laboratories, so protocols vary.

structure	read by	result
C[C@H]1[C@H](CO)C=C[C@@H]1n1cnc2c(N)ncnc21		>100 µg/mL
Cc1cn([C@H]2C[C@H](N=[N+]=[N-])[C@@H](CO)O2)c(=O)[nH]c1=O		1.9 µM
Cc1c(Cc2c(Cl)cccc2Cl)nc(SCC(=O)c2ccc(C#N)cc2)[nH]c1=O		>56.31 µM
c1ncc(CN2CCCNCCNCCCNCC2)cc1CN1CCCNCCNCCCNCC1		>250 µg/mL
NCCCNc1ccc2[nH]ccc2c1	MTT	229 µM
O=C(OCc1ccccc1)N(CCCCCN1CCCN(CCCCCN(Cc2ccccc2)C(=O)OCc2ccccc2)CCCN(CCCCCN(Cc2ccccc2)C(=O)OCc2ccccc2)CCN(CCCCCN(Cc2ccccc2)C(=O)OCc2ccccc2)CCC1)Cc1ccccc1		1 µM
Cc1cn([C@@H]2O[C@H](CO[Si](c3ccccc3)(c3ccccc3)C(C)(C)C)C3(OS(=O)(=O)C=C3N)[C@H]2O[Si](c2ccccc2)(c2ccccc2)C(C)(C)C)c(=O)[nH]c1=O		>150 µM
CC1(C)C=Cc2cc(C(=O)CC(=O)c3ccc(O)cc3)c(O)cc2O1		27 µg/mL
CN=C(N)NCCNc1ccc2[nH]ccc2c1	MTT	≥277 µM
O=C(OCc1ccccc1)N(CCCCCN1CCCN(CCCCCN(Cc2ccccc2)C(=O)OCc2ccccc2)CCN(CCCCCN(Cc2ccccc2)C(=O)OCc2ccccc2)CCCN(CCCCCN(Cc2ccccc2)C(=O)OCc2ccccc2)CC1)Cc1ccccc1		>50 µM
N=C(CNC(=O)NCCCNc1ccc2[nH]ccc2c1)N[N+](=O)[O-]	MTT	>375 µM
Cc1cn([C@H]2C[C@H](N=[N+]=[N-])[C@@H](CO)O2)c(=O)[nH]c1=O		84 µM
Cc1cn([C@@H]2CC(CO)(CO)CO2)c(=O)[nH]c1=O		>100 µg/mL
O=c1[nH]cnc2c1ncn2[C@H]1CC[C@@H](CO)O1		>500 µM
O=C(NCCCCCN1CCCN(CCCCCNC(=O)OCc2ccccc2)CCN(CCCCCNC(=O)OCc2ccccc2)CCCN(CCCCCNC(=O)OCc2ccccc2)CC1)OCc1ccccc1		10 µM
O=C(/C=C/c1ncc(-c2ccccc2)cn1)Nc1cc(-c2ccc3c(c2)CCCC3)[nH]n1		>30 µM
Cc1c(Cc2c(Cl)cccc2Cl)nc(SC/C=C/c2ccc([N+](=O)[O-])cc2)[nH]c1=O		>10.82 µM
CCCN(C)c1nc([C@@H](C)c2c(F)cccc2F)c(C)c(=O)[nH]1	MTT	>78 µM
Cc1cn([C@H]2C[C@H](N=[N+]=[N-])[C@@H](CO)O2)c(=O)[nH]c1=O		75 µM
c1ccc(CNCCCCCN2CCCN(CCCCCNCc3ccccc3)CCN(CCCCCNCc3ccccc3)CCCN(CCCCCNCc3ccccc3)CC2)cc1		>10 µM
CC(C)(C)NC(=O)[C@@H]1C[C@@H]2CCCC[C@@H]2CN1C[C@@H](O)[C@H](Cc1ccccc1)NC(=O)[C@H](CC(N)=O)NC(=O)c1ccc2ccccc2n1	MTT	14 µM
Cc1cn([C@H]2C[C@H](N=[N+]=[N-])[C@@H](CO)O2)c(=O)[nH]c1=O	MTT	>93.55 µM
O=C(O[C@@H]1Cc2c(O)cc(O)cc2O[C@@H]1c1cc(O)c(O)c(O)c1)c1cc(O)c(O)c(O)c1		31 µg/mL
NC(N)=NCCCCNc1ccc2[nH]ccc2c1.O=S(O)O	MTT	213 µM
Cc1cn([C@H]2C[C@H](N=[N+]=[N-])[C@@H](CO)O2)c(=O)[nH]c1=O	MTT	>46 µM
Cc1c(C(C)c2c(F)cccc2F)nc(SC/C=C/c2ccc(C#N)cc2)[nH]c1=O		>59.1 µM
O=C(NCCCCCCN1CCCN(CCCCCCNC(=O)OCc2ccccc2)CCN(CCCCCCNC(=O)OCc2ccccc2)CCCN(CCCCCCNC(=O)OCc2ccccc2)CC1)OCc1ccccc1		1 µM
C1CNCCNCCCN2CCCNCCNCCCN(C1)CC2		>250 µg/mL
C1CNCCNCCCN(CCCN2CCCNCCNCCCNCC2)CCNC1		>100 µM
COC1=C(N)C(=O)c2nc(-c3nc(C(N)=O)c(C)c(-c4ccc(OC)c(OC)c4O)c3N)ccc2C1=O		0.1 µg/mL
O=C(Nc1cc(-c2ccc3c(c2)CCCC3)[nH]n1)c1ccc(-c2cncnc2)s1		>30 µM
CC(C)=CCN1Cc2cccc3[nH]c(=S)n(c23)C[C@@H]1C		≥50 µM
CO[Si](OC[C@H]1O[C@@H](n2cc(C)c(=O)n(C)c2=O)[C@H](O[Si](C)(C)C(C)(C)C)C12OS(=O)(=O)C=C2N)(c1ccccc1)C(C)(C)C		4.8 µM
O=C(O)c1cc(CN2CCCNCCNCCCNCC2)ccc1CN1CCCNCCNCCCNCC1		>250 µg/mL
Cc1cn([C@@H]2O[C@H](COCc3ccccc3)C3(OS(=O)(=O)C=C3NC(=O)c3ccccc3)[C@H]2OC(=O)c2ccccc2)c(=O)[nH]c1=O		89 µM
CCOc1ccc(CSc2nc(Cc3c(F)cccc3F)c(C)c(=O)[nH]2)cc1		>62.19 µM
c1cc(CCN2CCCNCCNCCCNCC2)ccc1CCN1CCCNCCNCCCNCC1		>250 µg/mL
CCC(c1nc(SCc2ccc(OC)cc2)[nH]c(=O)c1C)c1c(F)cccc1F		>12.02 µM
COc1ccc2c(c1)O[C@H]1c3ccc(O)cc3OC[C@@H]21		53 µg/mL
Cc1cn([C@H]2O[C@@H](CO[Si](C)(C)C(C)(C)C)C3(OS(=O)(=O)C=C3N)[C@@H]2O[Si](C)(C)C(C)(C)C)c(=O)[nH]c1=O		7 µg/mL
CCc1c(Cc2c(F)cccc2F)nc(SCc2ccc([N+](=O)[O-])cc2)[nH]c1=O		>59.95 µM
O=[N+]([O-])c1cc(CN2CCCNCCNCCCNCC2)cc(CN2CCCNCCNCCCNCC2)c1		>250 µg/mL
C1CNCCCNCCNCCCNC1		>100 µM
NC(N)=NCCC[C@H](N)C(=O)NC[C@@H]1OC(O[C@H]2[C@@H](O)[C@H](O[C@@H]3[C@@H](O)[C@H](NC(=O)[C@@H](N)CCCN=C(N)N)C[C@H](NC(=O)[C@@H](N)CCCN=C(N)N)[C@H]3O[C@H]3O[C@H](CNC(=O)[C@@H](N)CCCN=C(N)N)[C@@H](O)[C@H](O)[C@H]3NC(=O)[C@@H](N)CCCN=C(N)N)O[C@@H]2CO)[C@H](NC(=O)[C@@H](N)CCCN=C(N)N)[C@@H](O)[C@@H]1O		>55 µM
COc1cc(CN2CCCNCCNCCCNCC2)c(OC)cc1CN1CCCNCCNCCCNCC1		185 µg/mL
Cc1ccnc2c1NC(=O)c1cccnc1N2C1CC1	MTT	>2 µg/mL
CCCN(C)c1nc(C(C)c2c(F)cccc2F)c(C)c(=O)[nH]1	MTT	>78 µM
CC(C)(C)NC(=O)[C@@H]1CN(Cc2cccnc2)CCN1C[C@@H](O)C[C@@H](Cc1ccccc1)C(=O)N[C@H]1c2ccccc2C[C@H]1O	MTT	>100 µM
Cc1cn([C@@H]2O[C@H](CO[Si](C)(C)C(C)(C)C)[C@@]3(OS(=O)(=O)C=C3N)[C@H]2O[Si](C)(C)C(C)(C)C)c(=O)[nH]c1=O		>50 µM
Cc1cn([C@@H]2O[C@H](CO[Si](C)(C)C(C)(C)C)C3(OS(=O)(=O)C=C3N)[C@H]2O)c(=O)[nH]c1=O		95 µM
CN=C(N)NCCCNc1ccc2[nH]ccc2c1	MTT	144 µM
c1cc(CN2CCCNCCCNCCNCCC2)cc(CN2CCCNCCCNCCNCCC2)c1		>250 µg/mL
COc1cc2c(cc1/C=C/C(=O)c1ccc(O)cc1)CC(C)(C)C(C)O2		6 µg/mL
CNC(C)[C@H]1O[C@H](O[C@@H]2[C@@H](O)[C@H](O[C@@H]3OC[C@@](C)(O)[C@@H](NC)[C@@H]3O)[C@@H](NC(=O)[C@@H](N)CCCN=C(N)N)C[C@H]2NC(=O)[C@@H](N)CCCN=C(N)N)[C@H](NC(=O)[C@@H](N)CCCN=C(N)N)[C@@H](O)[C@@H]1O		>90 µM
c1cc2cc(NCCCNC3=NCCCN3)ccc2[nH]1	MTT	167 µM
c1cc(CN2CCCNCCCNCCNCCC2)ccc1CN1CCCNCCCNCCNCCC1		>250 µg/mL
Cc1cn([C@H]2C[C@H](N=[N+]=[N-])[C@@H](CO)O2)c(=O)[nH]c1=O	MTT	>1 µg/mL
CCOC(=O)CCNP(=O)(OC[C@@H]1O[C@H](n2cc(C)c(=O)[nH]c2=O)C[C@H]1N=[N+]=[N-])OC[C@H]1O[C@@H](n2cc(C)c(=O)[nH]c2=O)C[C@@H]1N=[N+]=[N-]		>100 µM
CC(C)=CCc1c(O)cc2occ(-c3ccc(O)cc3)c(=O)c2c1O		12 µg/mL
CC(=O)NC1=CS(=O)(=O)OC12[C@@H](COCc1ccccc1)O[C@@H](n1cc(C)c(=O)[nH]c1=O)[C@@H]2OC(C)=O		>160 µM
NCCCCCCN1CCCN(CCCCCCN)CCCN(CCCCCCN)CCN(CCCCCCN)CCC1		50 µM

Repeating the final 6 entries:

structure | read by | result
c1cc(CN2CCCNCCCNCCNCCC2)ccc1CN1CCCNCCCNCCNCCC1 |  | >250 µg/mL
Cc1cn([C@H]2C[C@H](N=[N+]=[N-])[C@@H](CO)O2)c(=O)[nH]c1=O | MTT | >1 µg/mL
CCOC(=O)CCNP(=O)(OC[C@@H]1O[C@H](n2cc(C)c(=O)[nH]c2=O)C[C@H]1N=[N+]=[N-])OC[C@H]1O[C@@H](n2cc(C)c(=O)[nH]c2=O)C[C@@H]1N=[N+]=[N-] |  | >100 µM
CC(C)=CCc1c(O)cc2occ(-c3ccc(O)cc3)c(=O)c2c1O |  | 12 µg/mL
CC(=O)NC1=CS(=O)(=O)OC12[C@@H](COCc1ccccc1)O[C@@H](n1cc(C)c(=O)[nH]c1=O)[C@@H]2OC(C)=O |  | >160 µM
NCCCCCCN1CCCN(CCCCCCN)CCCN(CCCCCCN)CCN(CCCCCCN)CCC1 |  | 50 µM

CCn is the concentration with n% toxicity to the cells. An empty or dashed field is not shown.